Pooled drug test results. Numbers come from NIAID ChemDB, via PubChem.

All rows: growth or infection tests; species: Staphylococcus aureus; read-out: MIC

Neighbouring rows are from separate reports.

compound	strain	result
CCCCCCCCCCCC[N+](C)(C)COC(C)CCC	ATCC33592	7.14 µM
CC[C@H]1OC(=O)[C@H](C)C(=O)[C@H](C)[C@@H](O[C@@H]2O[C@H](C)C[C@H](N(C)C)[C@H]2O)[C@@]2(C)C[C@@H](C)C(=NC(C)=O)[C@H](C)C(OC/C(=N\OCc3ccccc3)CO2)[C@]1(C)O	25923 (erythromycin-susceptible)	0.13 µg/mL
CCCCCCCCCCCC[N+](C)(C)COC(CC)CCCCC	ATCC33592	1.28 µM
O=C1O[C@@H](COc2cnsn2)CN1c1ccc(-n2ccnc2)c(F)c1	078 (oxford)	0.5 µg/mL
CC(=O)NC[C@H]1CN(c2ccc(-c3ccn(CCC#N)n3)c(F)c2)C(=O)O1	UC6685 (methicillin-resistant)	4 µg/mL
CNC(=O)N[C@@H]1CCN(c2ccc(N3C[C@H](CNc4ccon4)OC3=O)cc2F)C1	004 (methicillin quinolone-resistant)	0.5 µg/mL
CC[C@H]1OC(=O)[C@H](C)C(=O)[C@H](C)[C@@H](O[C@@H]2O[C@H](C)C[C@H](N(C)C)[C@H]2O)[C@@]2(C)C[C@@H](C)C(=NC(=O)CO)[C@H](C)C(OC/C(=C\C=C\c3ccccc3)CO2)[C@]1(C)O	29213 (erythromycin-susceptible)	0.5 µg/mL
CC[C@H]1OC(=O)[C@H](C)C(=O)[C@H](C)[C@@H](O[C@@H]2O[C@H](C)C[C@H](N(C)C)[C@H]2O)[C@](C)(OC)C[C@@H](C)C(=O)[C@H](C)[C@H]2N(CCCCn3cnc(-c4cccnc4)c3)C(=O)O[C@]12C	25923 (erythromycin-susceptible)	0.13 µg/mL
NCCCCCCCCCCNc1cc2c(cc1F)c(=O)c(C(=O)O)cn2C1CC1	ATCC 6538P	>100 µg/mL
CC(C)CC(=O)NC[C@H]1CN(c2ccc3c(c2)-n2cccc2COC3)C(=O)O1	ATCC 29213 (MSSA)	32 µg/mL
CC[C@H]1OC(=O)[C@H](C)C(=O)[C@H](C)[C@@H](O[C@@H]2O[C@H](C)C[C@H](N(C)C)[C@H]2O)[C@@]2(C)C[C@@H](C)C(=NC(C)=O)[C@H](C)[C@@H](OC/C(=N\Oc3ccc(-n4cccn4)nc3)CO2)[C@]1(C)O	27660 (erythromycin-resistant)	0.13 µg/mL
CC(=O)NC[C@H]1CN(c2ccc(-c3cnn(Cc4ccccc4)c3)c(F)c2)C(=O)O1	UC9213 (methicillin-susceptible)	8 µg/mL
CCCCCCCCCCCC[N+](C)(C)COC(C)C	ATCC33592	9.32 µM
CC[C@H]1OC(=O)[C@H](C)C(=O)[C@H](C)[C@@H](O[C@@H]2O[C@H](C)C[C@H](N(C)C)[C@H]2O)[C@@]2(C)C[C@@H](C)C(=NC(C)=O)[C@H](C)[C@@H](OC/C(=N\Oc3ccc(-c4cnccn4)s3)CO2)[C@]1(C)O	25923 (erythromycin-susceptible)	0.25 µg/mL
CCCCN(CCCC)CCCNc1cc2c(cc1F)c(=O)c(C(=O)O)cn2C1CC1	ATCC 6538P	100 µg/mL
CCCCCCCC[N+](C)(C)COCC(CC)CCCC	ATCC 6538	7.4 µM
COCCN(CCOC)c1cc2c(cc1F)c(=O)c(C(=O)O)cn2C1CC1	ATCC 5278 (methicillin-resistant)	>100 µg/mL
CC[C@H]1OC(=O)[C@H](C)C(=O)[C@H](C)[C@@H](O[C@@H]2O[C@H](C)C[C@H](N(C)C)[C@H]2O)[C@@]2(C)C[C@@H](C)C(=NC(C)=O)[C@H](C)[C@@H](OC/C(=N\Oc3ccc(-c4nnc(N)s4)cc3)CO2)[C@]1(C)O	27660 (erythromycin-resistant)	0.13 µg/mL
NCCCCCCCCCNc1cc2c(cc1F)c(=O)c(C(=O)O)cn2C1CC1	ATCC 5278 (methicillin-resistant)	>100 µg/mL
CC(=O)NC[C@H]1CN(c2ccc(-c3cnn(C(c4ccccc4)(c4ccccc4)c4ccccc4)c3)c(F)c2)C(=O)O1	UC6685 (methicillin-resistant)	>32 µg/mL
CC[C@H]1OC(=O)[C@H](C)C(=O)[C@H](C)[C@@H](O[C@@H]2O[C@H](C)C[C@H](N(C)C)[C@H]2O)[C@@]2(C)C[C@@H](C)C(=NC(C)=O)[C@H](C)[C@@H](OC/C(=N\OCc3ccc4nc(N)sc4c3)CO2)[C@]1(C)O	33591 (erythromycin methicillin-resistant)	>64 µg/mL
CCCCCCCCCCCC[N+](C)(C)COCC(CC)CCC	ATCC33592	12.8 µM
CC(=O)NC[C@H]1CN(c2ccc(-c3cncs3)c(F)c2)C(=O)O1	UC9213 (methicillin-susceptible)	0.5 µg/mL
CC[C@H]1OC(=O)[C@H](C)C(=O)[C@H](C)[C@@H](O[C@@H]2O[C@H](C)C[C@H](N(C)C)[C@H]2O)[C@@]2(C)C[C@@H](C)C(=NC(C)=O)[C@H](C)C(OC/C(=N\OCC#Cc3cccc(N)n3)CO2)[C@]1(C)O	25923 (erythromycin-susceptible)	0.13 µg/mL
N#Cc1ccc(N2CCN(c3ccc(N4C[C@H](CNc5ccon5)OC4=O)cc3F)CC2)nn1	004 (methicillin quinolone-resistant)	0.5 µg/mL
CCN1CCN(C)c2cc3c(=O)c(C(=O)O)cn(C4CC4)c3cc21	ATCC 5278 (methicillin-resistant)	>100 µg/mL
CC[C@H]1OC(=O)[C@H](C)C(=O)[C@H](C)[C@@H](O[C@@H]2O[C@H](C)C[C@H](N(C)C)[C@H]2O)[C@@]2(C)C[C@@H](C)C(=NC(C)=O)[C@H](C)C(OC/C(=N/OCc3ccccc3)CO2)[C@]1(C)O	33591 (erythromycin methicillin-resistant)	>64 µg/mL
C=C1COC2[C@@H](C)C(=NC(C)=O)[C@H](C)C[C@@](C)(OC1)[C@H](O[C@@H]1O[C@H](C)C[C@H](N(C)C)[C@H]1O)[C@@H](C)C(=O)[C@@H](C)C(=O)O[C@H](CC)[C@@]2(C)O	33591 (erythromycin methicillin-resistant)	>64 µg/mL
CCCCCCCCOC[N+](C)(C)CCCCCCCC	ATCC33592	149 µM
O=C(NC[C@H]1CN(c2ccc3c(c2)-n2cccc2COC3)C(=O)O1)C1CC1	ATCC 29213 (MSSA)	8 µg/mL
CCCCCCCCCCCC[N+](C)(C)CSCCCCCC	ATCC33592	13.1 µM
CC[C@H]1OC(=O)[C@H](C)C(=O)[C@H](C)[C@@H](O[C@@H]2O[C@H](C)C[C@H](N(C)C)[C@H]2O)[C@@]2(C)C[C@@H](C)C(=NC(C)=O)[C@H](C)C(OC/C(=C\C#Cc3ccc(N)nc3)CO2)[C@]1(C)O	29213 (erythromycin-susceptible)	0.13 µg/mL
O=C(CCl)NC[C@H]1CN(c2ccc3c(c2)-n2cccc2COC3)C(=O)O1	ATCC 49951 (SMITH)	2 µg/mL
CCCCCCCCCCCC[N+](C)(C)CSCCC	ATCC 6538	15 µM
CCOC(CC(C)(C)CNc1cc2c(cc1F)c(=O)c(C(=O)O)cn2C1CC1)OCC	ATCC 6538P	>100 µg/mL
O=C(CBr)NC[C@H]1CN(c2ccc3c(c2)-n2cccc2COC3)C(=O)O1	ATCC 49951 (SMITH)	4 µg/mL
Cc1cn(-c2ccc(N3C[C@H](CSC4C=NN=N4)OC3=O)cc2F)cn1	078 (oxford)	4 µg/mL
CC(=O)NC[C@H]1CN(c2ccc3c(c2)-n2cccc2COC3)C(=O)O1	ATCC 33591 (MRSA)	2 µg/mL
CC[C@H]1OC(=O)[C@H](C)C(=O)[C@H](C)[C@@H](O[C@@H]2O[C@H](C)C[C@H](N(C)C)[C@H]2O)[C@@]2(C)C[C@@H](C)C(=NC(C)=O)[C@H](C)[C@@H](OC/C(=N\OCCc3ccccc3)CO2)[C@]1(C)O	27660 (erythromycin-resistant)	0.5 µg/mL
CC[C@H]1OC(=O)[C@H](C)C(=O)[C@H](C)[C@@H](O[C@@H]2O[C@H](C)C[C@H](N(C)C)[C@H]2O)[C@@]2(C)C[C@@H](C)C(=NC(C)=O)[C@H](C)C(OC/C(=C\C=C\c3ccc(F)cc3)CO2)[C@]1(C)O	29213 (erythromycin-susceptible)	0.5 µg/mL